Experimental data: PubChem BioAssay AID624099 (ICCB-Longwood, 2012)
Test: 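Knock-downs relieving repression by E2 of an HPV18 LCR luciferase reporter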 (primary screen). System: human C33A cervical carcinoma cells (HPV-negative) stably expressing BPV1 E2 and an HPV18 LCR luciferase reporter. Reagent: siRNA pool against human genes, 40 nM. Duration: 72 h. Read-out: 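Per-well luciferase luminescence, z-scored on each plate against the plate mean and SD with control wells left out, then averaged across three replicate plates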. Scale: mean z-score and z-score: higher = stronger reporter signal, weaker E2 silencing. Hit rule: 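Hit if mean z-score reaches 2 and two or more of three replicate z-scores also reach 2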.
The whole screen tested about 21,000 reagents; below is an unselected part. Over the whole deposit, 497 (2.4%) got an active call. 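Higher z means weaker E2 silencing; only reporter increases were scored, and knock-downs that hurt cell survival may mask genuine repressor factors.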

no.	gene knocked down	PubChem SID	mean z-score	z-score, replicate A	z-score, replicate B	z-score, replicate C	Call
1	FBXO40	SID134324534	-0.24	-0.13	-0.15	-0.42	inactive
2	LOC389656 (retired record)	SID134328004	-0.25	-0.36	-0.2	-0.19	inactive
3	RNF212	SID134312951	0.11	-0.06	0.04	0.35	inactive
4	NPHP4	SID134317138	-0.4	-0.48	-0.43	-0.31	inactive
5	PAX2	SID134310166	1	1.07	1.04	0.89	inactive
6	ADGRA1	SID134310982	0.25	0.45	-0.02	0.31	inactive
7	SAMD10	SID134319289	0.53	0.89	0.38	0.31	inactive
8	FAM234A	SID134318875	-1.39	-1.49	-1.36	-1.33	inactive
9	WDR12	SID134317215	-0.17	-0.21	-0.08	-0.23	inactive
10	MAP1LC3A	SID134317799	-0.93	-0.85	-1.09	-0.85	inactive
11	BTC	SID134315924	-0.08	-0.09	0.04	-0.18	inactive
12	ZNF154	SID134325859	-0.99	-0.92	-1.11	-0.94	inactive
13	NOLC1	SID134323606	0.86	0.77	1.16	0.64	inactive
14	MUC20	SID134320489	-0.34	-0.08	-0.7	-0.24	inactive
15	DRG2	SID134315607	0.64	1.11	0.32	0.48	inactive
16	SYNE1	SID134318226	0.45	0.27	0.32	0.75	inactive
17	CCT4	SID134323883	0.49	0.28	0.66	0.52	inactive
18	LOC283166 (retired record)	SID134326582	0.38	-0.26	0.41	1	inactive
19	FBXL20	SID134319095	-0.65	-0.92	-0.38	-0.65	inactive
20	FAM81A	SID134320382	0.35	0.06	0.19	0.8	inactive
21	ST8SIA4	SID134316426	2.31	2.1	2.24	2.58	active
22	ADAMTS4	SID134310086	1.24	1.01	1.64	1.06	inactive
23	PLA2G15	SID134314351	0.8	0.52	0.95	0.94	inactive

3 successive entries already listed, for reference:
no.	gene knocked down	PubChem SID	mean z-score	z-score, replicate A	z-score, replicate B	z-score, replicate C	Call
21	ST8SIA4	SID134316426	2.31	2.1	2.24	2.58	active
22	ADAMTS4	SID134310086	1.24	1.01	1.64	1.06	inactive
23	PLA2G15	SID134314351	0.8	0.52	0.95	0.94	inactive
